What follows are molecules tested on L. monocytogenes Scott A (assay: Minimal inhibitory concentration (MIC) and minimal bactericidal concentration (MBC), 96-well plate broth assay). Details: in terms of MIC, versus compound 2.
Assay type: cell-based, Listeria monocytogenes
Oc1ccc(/C=C/c2cc(O)cc3occ(-c4cc(O)cc(O)c4)c23)cc1 [Compound 8] was tested, and the “Change of antimicrobial activity (MIC) compared with the parent compound 2” value (“Change of antimicrobial activity (MIC)” below) was “four-fold lower activity”. With Oc1ccc(-c2oc3cc(O)ccc3c2-c2cc(O)cc(O)c2)cc1 [Compound 6] the “Change of antimicrobial activity (MIC)” value was “four-fold lower activity”. Oc1ccc(/C=C/c2cc(O)cc3occ(-c4cc(O)cc(O)c4)c23)cc1 [Compound 7] was tested, and the “Change of antimicrobial activity (MIC)” value was “two-fold higher potency”.
